For some assays here: HELM strings list residues between dots; [ac] is acetyl, [am] amide, other brackets name non-standard units.

Data set [1] is described as follows: general procedure: Fmoc solid-phase peptide synthesis; p-hydroxymethylphenoxymethylpolystyrene (HMP) resin; benzhydrylamine resin (Boc examples). The settings on record: HPLC analysis.
A short description of data set [2]: solid-phase peptide synthesis. Particulars: whole synthesis, HPLC analysis, scale of the general procedure 0.25 mmol.
Data set [3] in a line: general procedure: Fmoc solid-phase peptide synthesis; HMP resin. Particulars: whole synthesis, scale 0.25 mmol.
Setting [4] is: whole synthesis, scale of the general procedure 0.25 mmol.

Take “PEPTIDE1{C.R.R.W.Q.W.R.M.K.K.L.G.A.P.S.I.T.C}$PEPTIDE1,PEPTIDE1,1:R3-18:R3$$$V2.0”: in data set [1] (setting [4]), the “final purity (method not given)” value stood at 94%. “PEPTIDE1{[ac].C.F.Q.W.Q.R.N.M.R.K.V.R.G.P.P.V.S.C.[am]}$PEPTIDE1,PEPTIDE1,2:R3-19:R3$$$V2.0”: in data set [2], the “final purity (method not given)” value was 91%. Regarding [19CysSH, 36CysSH] bovine LF (17-41), the “final purity (method not given)” value in data set [1] (setting [4]) was determined as 91%. In data set [3], [20CysSH, 37CysSH] human LF (20-37) displayed a crude mass of 500 mg and an isolated mass of 340 mg. On to “PEPTIDE1{[ac].C.R.R.W.Q.W.R.M.K.K.L.G.A.P.S.I.T.C.[am]}$PEPTIDE1,PEPTIDE1,2:R3-19:R3$$$V2.0”, for which the “final purity (method not given)” value in data set [1] (oxidative folding step) was 95%. Consider [20CysSH, 37CysSH]] human LF (18-42), for which, in data set [1] (setting [4]), the “final purity (method not given)” value was found to be 94%. “PEPTIDE1{C.F.Q.W.Q.R.N.M.R.K.V.R.G.P.P.V.S.C}$PEPTIDE1,PEPTIDE1,1:R3-18:R3$$$V2.0”: in data set [1] (oxidative folding step), the “final HPLC purity” value amounted to 93%.

For the origin of these results see US5565425A (Snow Brand Milk Products Co., Ltd, priority 1993, dated 1996).
